Earlier results as cited in paper PMC10840515.

Test system: T cells of individuals
Conditions: healthy unexposed individuals; cited from earlier work

## CC[C@H](C)[C@H](NC(=O)CNC(=O)[C@@H](NC(=O)[C@H](CC(C)C)NC(=O)[C@H](C)NC(=O)[C@H](CCCNC(=N)N)NC(=O)[C@H](CC(N)=O)NC(=O)[C@H](CC(C)C)NC(=O)[C@H](CCC(N)=O)NC(=O)[C@@H](N)[C@@H](C)O)[C@@H](C)O)C(=O)N[C@@H](C)C(=O)N[C@H](C(=O)N[C@@H](CCC(=O)O)C(=O)N[C@@H](CCC(N)=O)C(=O)N[C@@H](CC(=O)O)C(=O)O)C(C)C
  responding individuals: 21%
  responding individuals / tested: 3/14
